Compound potency records, mixed from different reports. Data source: NIAID ChemDB in PubChem.

Shared fields: whole-cell or culture tests; organism: Mycobacterium tuberculosis

An empty or dashed field is not shown. Conditions beyond the fields shown may differ between rows. ECn is the concentration giving n% inhibition of infection, replication or growth. MIC bound comes from a single tested concentration. Inhibition is in % at the dose shown (toxicity tests: loss of growth or viability). A number after MIC or MFC names an inhibition level or a share of isolates.

SMILES,strain or isolate,cell line,read by,setting,endpoint,dose,value
CCCNC(=S)NNC(=O)c1c(C)nc2sccn12,H37Rv,-,-,-,MIC,-,>200 µg/mL
CN(C)CC1CCC/C(=C\c2ccc(OC(=O)/C=C/c3ccc(Br)cc3)cc2)C1=O,H37Rv,-,-,-,EC50,-,<12.5 µg/mL
CSc1c2c(c(C)c3c1[nH]c1ccccc13)C=NCC2,H37Rv,-,resazurin,-,inhibition,6.25 µg/mL,99%
CC(=O)N1N=C(c2sc3ccc(Cl)cc3c2Cl)OC1c1cccc(Oc2ccccc2)c1,-,-,agar diffusion / agar,-,inhibition,40 µg/mL,4%
O=[N+]([O-])c1ccc(-c2nnc(S(=O)Cc3ccccc3[N+](=O)[O-])s2)s1,-,-,-,-,MIC,-,>6.25 µg/mL
CCOC(=O)C(CC(C)C)NC(=O)c1c2nc3c(C(=O)NC(CC(C)C)C(=O)OCC)ccc(C)c3oc-2c(C)c(=O)c1N,H37Rv,-,BACTEC,-,inhibition,12.5 µg/mL,-13%
NC(=O)NCCCN1c2ccccc2Sc2ccccc21,H37Rv,-,agar,-,inhibition,50 µg/mL,18%
NC(=O)C(=S)Nc1ccccc1,H37Rv,-,-,-,MIC,-,37 µM
CC(C)COc1ccc(NC(=S)Nc2ccc(-c3ccccn3)cc2)cc1,H37RV (INH-R),-,-,-,MIC,-,>50 µg/mL
COC(OC)c1c[n+](=O)c2ccccc2n1[O-],H37Rv,-,-,-,MIC,-,15.6 µg/mL
COc1ccc(C(=O)CN2CCN(c3cc4c(cc3F)c(=O)c(C(=O)O)cn4-c3ccc(N)cc3F)CC2)cc1,H37Rv,-,BACTEC,-,inhibition,6.25 µg/mL,31%
O=C(Nc1ccccc1)N1CCc2c(c(-c3ccccc3)nn2Cc2cn(-c3cc(Cl)cc(Cl)c3)nn2)C1,H37Rv,-,visual reading,-,MIC,-,91.83 µM
C#CCN1CCN(C(=S)N/N=C(/C)c2ccccn2)CC1,H37Rv,-,resazurin,-,inhibition,6.25 µg/mL,85%
Cc1ccc2ccccc2c1-c1[nH]c(-c2ccc(Cl)cc2)cc1CN1CCN(Cc2ccc3c(c2)OCO3)CC1,27294,-,-,-,MIC,-,>16 µg/mL
Nc1cccc2c1C(=O)c1cccc3snc-2c13,H37Rv,-,BACTEC,-,MIC bound,-,>12.5 µg/mL
CC(C)[C@@H]1NC(=O)[C@@H](C(C)C)OC(=O)[C@H](C(C)C)N(C)C(=O)[C@@H](C(C)C)OC(=O)[C@H](C(C)C)N(C)C(=O)[C@@H](C(C)C)OC1=O,H37Ra,-,resazurin,-,MIC,-,4.88 µM
Cc1cc(CN2CCN(Cc3ccc4c(c3)OCO4)CC2)c(-c2ccccc2)n1NC(=O)c1cnccn1,27294,-,-,-,MIC,-,>16 µg/mL
O=C(/C=C/c1ccc(Cl)cc1)Oc1ccc(/C=C2\CCC/C(=C\c3ccc(OC(=O)/C=C/c4ccc(Cl)cc4)cc3)C2=O)cc1,H37Rv,-,-,-,inhibition,12.5 µg/mL,0%
C(=NCCc1ccccc1)c1ccccc1B1OB(c2ccccc2C=NCCc2ccccc2)OB(c2ccccc2C=NCCc2ccccc2)O1,H37Rv,-,BACTEC,-,inhibition,128 µg/mL,97%
O=C(NCCCN1c2ccccc2Sc2ccccc21)N1C(=O)/C(=C\c2ccc([N+](=O)[O-])cc2)SC1c1ccc([N+](=O)[O-])cc1,H37Rv,-,agar,-,inhibition,50 µg/mL,82%
Cc1c(C)[n+](=O)c2ccccc2n1[O-],H37Rv,-,-,-,MIC,-,31.2 µg/mL
COc1ccccc1N1CCN(Cc2cc(-c3ccc(Cl)cc3)[nH]c2-c2c(C)ccc3ccccc23)CC1,27294,-,-,-,MIC,-,>16 µg/mL
COC(=O)C(C)NC(=O)c1c2nc3c(C(=O)NC(C)C(=O)OC)ccc(C)c3oc-2c(C)c(=O)c1N,H37Rv,-,BACTEC,-,inhibition,12.5 µg/mL,-74%
COc1ccccc1/C=N/C(=O)NCCCN1c2ccccc2Sc2ccccc21,H37Rv,-,agar,-,inhibition,25 µg/mL,23%
Nc1ccccc1NC(=S)C(=O)Nc1ccccc1,H37Rv,-,-,-,MIC,-,37 µM
Cc1nc2sccn2c1C(=O)N/N=C1\NC(=O)CS1,H37Rv,-,-,-,MIC,-,200 µg/mL
Cc1[nH]n(C(=O)c2sc3ccc(Cl)cc3c2Cl)c(=O)c1N=Nc1ccc(F)cc1,-,-,agar diffusion / agar,-,inhibition,40 µg/mL,29%
CC(=O)Nc1ccc(NC(=O)N/N=C/c2ccccc2O)cc1,-,-,-,-,EC50,-,>6.25 µg/mL
CC1(C)CC(=O)C2=C(C1)NC(SSC1=C(C#N)C(c3ccc(Br)cc3)C3=C(CC(C)(C)CC3=O)N1)=C(C#N)C2c1ccc(Br)cc1,H37Rv,-,BACTEC,-,MIC bound,-,>12.5 µg/mL
CO[C@H]1/C=C/O[C@@]2(C)Oc3c(C)c(O)c4c(O)c(c(/C=N/N5CCN(C)CC5)c(O)c4c3C2=O)NC(=O)/C(C)=C\C=C\[C@H](C)[C@H](O)[C@@H](C)[C@@H](O)[C@@H](C)[C@H](OC(C)=O)[C@@H]1C,TN715,-,-,-,MIC,-,>32 µg/mL
Cc1c(CN2CCN(C(c3ccccc3)c3ccccc3)CC2)cc(-c2ccc(Cl)cc2)n1-c1ccc(F)cc1F,27294,-,-,-,MIC,-,>16 µg/mL
CCC(C)c1c(NC(=O)c2ccccc2)o[nH]c1=O,H37Rv,-,BACTEC,-,inhibition,12.5 µg/mL,10%
CN(C)CC1CCC/C(=C\c2ccc(OC(=O)/C=C/c3ccc(F)cc3)cc2)C1=O,H37Rv,-,-,-,inhibition,12.5 µg/mL,99%
COc1ccc(COC(=O)C2=C(CN3CCN(c4nc(=O)c5cc(C(Cl)(Cl)Cl)cc([N+](=O)[O-])c5s4)CC3)CSC3[C@H](NC(=O)Cc4ccccc4)C(=O)N23)cc1,H37Rv,-,resazurin,-,MIC,-,>100 µM
Cc1csc2n/c(=N/[N+](=O)[O-])sn12,H37Rv,-,resazurin,-,MIC bound,-,<6.25 µg/mL
Cc1c(Cl)cccc1NC(=O)N/N=C/c1ccc([N+](=O)[O-])cc1,-,-,-,-,EC50,-,>6.25 µg/mL
Cc1cc2nc3ccc(N)cc3oc-2cc1=[N+](C)C,H37Rv,-,BACTEC,-,MIC bound,-,≤12.5 µg/mL
CNC(=S)NNC(=O)c1c(C)nc2sccn12,H37Rv,-,-,-,MIC,-,>200 µg/mL
Cc1nc(N)sc1S(=O)(=O)F,H37Rv,-,BACTEC,-,inhibition,6.25 µg/mL,3%
O=C(Nc1ccccc1)N1CCc2c(c(-c3ccccc3)nn2Cc2cn(-c3ccccc3I)nn2)C1,H37Rv,-,visual reading,-,MIC,-,166 µM
CC1(C)CC(N=c2cc3n(-c4ccc(Cl)cc4Cl)c4ccccc4nc-3cc2Nc2ccc(Cl)cc2Cl)CC(C)(C)N1,TBRP171 (INH RMP-resistant),-,-,-,MIC,-,0.06 µg/mL
Cc1ccc(C(=O)Oc2ccc(/C=C3\CCCCC3=O)cc2)cc1,H37Rv,-,-,-,inhibition,12.5 µg/mL,58%
O=C(NCCCN1c2ccccc2Sc2ccccc21)N1C(=O)/C(=C\c2ccccc2)SC1c1ccccc1,H37Rv,-,agar,-,inhibition,25 µg/mL,22%
C=CC(O)C#CC#CC(O)/C=C\CCCCCCC,Erdman,-,resazurin,-,MIC90,-,6 µg/mL
CC(=O)Nc1ccc(NC(=O)N/N=C/c2cccc([N+](=O)[O-])c2)cc1,-,-,-,-,EC50,-,<1.56 µg/mL
CCCCCCC/C=C\C(O)C#CC#CC(O)CCOC,Erdman,-,resazurin,-,MIC90,-,>60 µg/mL
CCN(CC)Cc1cc(Nc2c3ccc([N+](=O)[O-])cc3nc3ccc(OC)cc23)ccc1O,H37Rv,-,BACTEC,-,inhibition,12.5 µg/mL,99%
COc1ccc(/C=C2/SC(c3ccc(OC)cc3)N(C(=O)NCCCN3c4ccccc4Sc4ccccc43)C2=O)cc1,H37Rv,-,agar,-,inhibition,25 µg/mL,28%
COc1ccc(CCN2CC(=O)NC(=O)C2)cc1OC,H37Rv,-,BACTEC,-,inhibition,12.5 µg/mL,-11%
Cn1c([N+](=O)[O-])cnc1-c1nnc(S(=O)(=O)Cc2ccccc2[N+](=O)[O-])s1,-,-,-,-,MIC,-,6.25 µg/mL
CC1(C)CC(N=c2cc3n(-c4ccc(Cl)c(Cl)c4)c4ccccc4nc-3cc2Nc2ccc(Cl)c(Cl)c2)CC(C)(C)N1,H37Rv,Macrophages,-,inside macrophages,inhibition,0.005 µg/mL,95%
O=C(Nc1ccccc1)C(=S)Nc1ccccc1O,H37Rv,-,-,-,MIC,-,37 µM
O=C(Nc1ccccc1)N1CCc2c(c(-c3ccccc3)nn2Cc2cn(-c3cccc(Cl)c3)nn2)C1,H37Rv,-,visual reading,-,MIC,-,98.04 µM
CC1(C)OC2OC(CO)C(N3C(=O)c4ccccc4C3=O)C2O1,H37Rv,-,BACTEC,-,inhibition,12.5 µg/mL,10%
CCNC(=S)NNC(=O)c1c(C)nc2sccn12,H37Rv,-,-,-,MIC,-,>200 µg/mL
Cc1ccc(S(=O)(=O)Nc2ccc(C(=O)NC(CCC(=O)O)C(=O)O)cc2)cc1,H37Rv,-,BACTEC,-,inhibition,12.5 µg/mL,-14%
Nc1ccc(NC(=S)C(=O)Nc2ccc3ccccc3c2)cc1,H37Rv,-,-,-,MIC,-,3000 µM
C/C=C/NC(=S)NNC(=O)c1c(C)nc2sccn12,H37Rv,-,-,-,MIC,-,>200 µg/mL
O=C(/N=C/c1cccc(Cl)c1)NCCCN1c2ccccc2Sc2ccccc21,H37Rv,-,agar,-,inhibition,25 µg/mL,27%
Nc1ccc(-n2cc(C(=O)O)c(=O)c3cc(F)c(N4CCNCC4)cc32)c(F)c1,H37Rv,VERO,BACTEC,-,inhibition,6.25 µg/mL,100%
CNC(=O)c1cc(NC(=O)c2ccc(C(=O)Nc3cc(C(=O)NC)cc(C4=NCCN4)c3)cc2)cc(C2=NCCN2)c1,H37Rv,-,resazurin,-,inhibition,6.25 µg/mL,30%
Cc1cc(CN2CCN(c3cccc(C(F)(F)F)c3)CC2)c(-c2ccc(Cl)cc2)n1NC(=O)c1cnccn1,27294,-,-,-,MIC,-,>16 µg/mL
CC(C)OCC1(c2ccccc2)C(=O)N(C)C(=O)N1C,H37Rv,-,BACTEC,-,inhibition,12.5 µg/mL,0%
CC(=O)Nc1ccc(NC(=O)N/N=C/c2ccc(N(C)C)cc2)cc1,-,-,-,-,EC50,-,>6.25 µg/mL
NNC(=O)c1ccncc1,H37Rv,-,visual reading,-,MIC,-,≤22.6 µM
Cc1c(Cl)cccc1NC(=O)N/N=C/c1ccccc1O,-,-,-,-,EC50,-,>6.25 µg/mL
Cc1cccc(N=Nc2c(C)[nH]n(C(=O)c3sc4ccc(Cl)cc4c3Cl)c2=O)c1C,-,-,agar diffusion / agar,-,inhibition,40 µg/mL,18%
CNC(C)C1CC[C@@H](N)[C@@H](O[C@H]2[C@H](O)[C@@H](OC3OC[C@](C)(O)[C@H](NC)[C@H]3O)[C@H](N)C[C@@H]2N)O1,MC2 6020,-,resazurin,-,MIC,-,4 µM
CCn1cc(C(=O)O)c(=O)c2cc(F)c(N3CCN(C/C(=N/O)c4ccccc4)CC3)cc21,H37Rv,-,BACTEC,-,inhibition,6.25 µg/mL,28%
O=C1CSC(c2cccc(Br)c2)N1C(=O)NCCCN1c2ccccc2Sc2ccccc21,H37Rv,-,agar,-,inhibition,50 µg/mL,70%
Cn1c([N+](=O)[O-])cnc1-c1nnc(S(=O)(=O)Cc2ccc([N+](=O)[O-])cc2)s1,-,-,-,-,MIC,-,>6.25 µg/mL
Cc1nc2sccn2c1C(=O)N/N=C1/SCC(=O)N1C,H37Rv,-,-,-,MIC,-,>200 µg/mL
Nc1ccc2nc3ccc(=[NH2+])cc-3sc2c1,H37Rv,-,BACTEC,-,MIC bound,-,>12.5 µg/mL
O=[N+]([O-])c1ccc(-c2nnc(S(=O)(=O)Cc3ccccc3[N+](=O)[O-])s2)s1,-,-,-,-,MIC,-,>6.25 µg/mL
Cc1c(CN2CCOCC2)cc(-c2ccccc2)n1NC(=O)c1ccncc1,27294,-,-,-,MIC,-,2 µg/mL
COc1c(OC)[n+](=O)c2ccccc2n1[O-],H37Rv,-,-,-,MIC,-,31.2 µg/mL
NC(=O)c1cn(-c2ccc(N)cc2F)c2cc(N3CCNCC3)c(F)cc2c1=O,H37Rv,-,BACTEC,-,inhibition,6.25 µg/mL,1%
COc1ccc(C2OC(c3sc4ccc(Cl)cc4c3Cl)=NN2C(C)=O)cc1,-,-,agar diffusion / agar,-,inhibition,40 µg/mL,0%
O=C(Nc1ccc(Br)cc1)c1cnccn1,ETA-R,-,-,-,MIC,-,>12.5 µg/mL
O=C(/N=C/c1cccc(O)c1)NCCCN1c2ccccc2Sc2ccccc21,H37Rv,-,agar,-,inhibition,50 µg/mL,52%
CC1=NN(C(=O)c2cccnc2)C(=O)C1N=Nc1ccc(S(=O)(=O)N=C(N)N)cc1,H37Rv,-,BACTEC,-,MIC,-,≥12.8 µg/mL
COC(=O)Cc1c(CC(=O)OC)[n+](=O)c2ccccc2n1[O-],H37Rv,-,-,-,MIC,-,250 µg/mL